Pooled drug test results. Numbers come from NIAID ChemDB, via PubChem.

Shared fields: whole-cell or culture tests; species: Mycobacterium tuberculosis

Rows are shuffled and stem from different studies. An empty or dashed field is not shown. ECn: concentration that inhibits the pathogen or its effect by n%. Two numbers with a dash give a range or band. A number after MIC or MFC names an inhibition level or a share of isolates. MIC bound comes from a single tested concentration. Percent inhibition refers to the dose given; in toxicity tests it is the harm to the cells.

SMILES	read-out	dose	changes	conditions	read by	strain	result
CCOc1c(N=Nc2ccc([N+](=O)[O-])cc2)c(C)nn1C(=S)S	MIC	-	-	-	BACTEC	H37Rv	≥12.5 µg/mL
O=C(Nc1cncs1)c1cc(Br)ccc1O	MIC	-	-	-	-	My 331/88	62.5 µM
CNc1ccccc1C(=O)O[C@@H]1[C@@H](C)[C@]2(O)[C@@H]3C=C(C)C(=O)[C@H]3CC(C)=C[C@H]2[C@@H]2C(C)(C)[C@]12OC(=O)O	MIC	-	-	-	-	H37Ra	50 µg/mL
C[n+]1cn(-c2ccc([N+](=O)[O-])cn2)c2ccccc21	MIC bound	-	-	-	resazurin	H37Rv	>6.25 µg/mL
Cc1c(Cl)cccc1N=Nc1c(O)c2ccc([N+](=O)[O-])cc2[nH]c1=O	MIC	-	-	-	resazurin	H37Rv	<6.25 µg/mL
Cc1cc[n+](CC(=O)c2ccc(F)cc2)cc1.[Br-]	EC50	-	-	multidrug-resistant	resazurin	Clinical isolate	8 µg/mL
Cc1c(CN2CCSCC2)cc(-c2ccccc2Cl)n1-c1ccccc1Cl	MIC	-	-	-	-	-	4 µg/mL
CC(C)CCC[C@@H](C)[C@H]1CC[C@H]2[C@@H]3CC[C@H]4C[C@@H](CCC=C(c5cc(Cl)c(O)c(C(=O)O)c5)c5cc(Cl)c(O)c(C(=O)O)c5)CC[C@]4(C)[C@H]3CC[C@]12C	MIC bound	-	-	-	BACTEC	H37Rv	>12.5 µg/mL
C=C1CC(=O)N(CCCCCCCCC)C1=O	MIC	-	-	-	-	Clinical isolate (isoniazid-resistant)	≤20 µg/mL
Cc1ccc(C(=O)Nn2cncn2)c(O)c1	MIC	-	-	-	-	My 331/88	1000 µM
Cc1cc(C2CCCC2)nc2c(C3CCCC3)cccc12	MIC	-	-	-	-	H37Rv	6.25 µg/mL
Cc1ccc(-c2cs/c(=N/NC(=O)CSc3nnc(-c4ccccn4)s3)n2-c2ccccc2)cc1	MIC	-	-	-	-	H37Rv	40 µg/mL
COc1ccc(Cc2c(C)c(C#N)c3[nH]c4ccccc4n3c2=O)cc1	MIC	-	-	-	broth dilution	H37Rv	0.25 µg/mL
O=C(O)CN1CCCN(CC(=O)O)Cc2cccc(n2)CN(CC(=O)O)CCC1	EC50	-	-	-	radiometric	H37Rv	<7.5 µg/mL
CO[C@H]1/C=C/O[C@@]2(C)Oc3c(C)c(O)c4c(O)c(c(/C=N/N5CCOCC5)c(O)c4c3C2=O)NC(=O)/C(C)=C\C=C\[C@H](C)[C@H](O)[C@@H](C)[C@@H](O)[C@@H](C)[C@H](OC(C)=O)[C@@H]1C	MIC	-	-	-	-	H37Rv	0.2 µg/mL
COC(=O)c1cn(-c2cccnn2)nn1	inhibition	6.25 µg/mL	-	-	-	H37Rv	2%
C[n+]1cc2c(cn3c4ccccc4ccc23)c2ccccc21.[I-]	MIC	-	-	-	resazurin / visual reading	H37Ra	1.5 µg/mL
Nc1nnc2nc(CC(=O)c3ccc(F)cc3)c(CC(=O)c3ccc(F)cc3)nn12	inhibition	12.5 µg/mL	-	-	BACTEC	H37Rv	0%
c1ccc(-c2cn3ccsc3n2)cc1	MIC	-	-	-	-	H37Rv	>6.25 µg/mL
Cc1csc(NC(=O)c2ccc(Cl)cc2O)n1	MIC	-	-	-	-	My 331/88	16 µM
CCCCCCCCN1C(=O)CC(SCC(N)C(=O)O)C1=O	MIC	-	-	-	-	H37Rv	≤20 µg/mL
c1ccc2c(c1)Nc1ccccc1S2	MIC	-	-	-	-	H37Rv	128 µg/mL
CCCCCCCCCN1C(=O)CC(SCCNC(=O)C(CC)CCCC)C1=O	MIC	-	-	-	-	H37Ra	≤20 µg/mL
Cc1c(CN2CCSCC2)cc(-c2ccccc2)n1-c1cccc2ccccc12	MIC	-	-	-	-	-	>16 µg/mL
CC(CN1c2ccccc2Sc2ccccc21)N(C)C	MIC	-	-	-	-	H37Rv	32 µg/mL
Cc1ccc(NC(=O)C2C(=O)N(c3ccc(C)c(C)c3)C(=O)C2N=N)cc1C	inhibition	12.5 µg/mL	-	-	BACTEC	H37Rv	14%
Nc1c(Br)cc(Br)cc1CNC1CCC(O)CC1	MIC	-	-	-	-	10 isolates	50–100 µg/mL
O=C(CSc1nnc(-c2ccccn2)s1)N/N=c1/scc(-c2cccc(Br)c2)n1-c1ccccc1	MIC	-	-	-	-	Clinical isolate 331	10 µg/mL
CO[C@H]1/C=C/O[C@@]2(C)Oc3c(C)c(O)c4c(O)c(c(C=NN5CCCCC5)c(O)c4c3C2=O)NC(=O)/C(C)=C\C=C\[C@H](C)[C@H](O)[C@@H](C)[C@@H](O)[C@@H](C)[C@H](OC(C)=O)[C@@H]1C	MIC	-	-	-	-	H37Rv	0.05 µg/mL
CCCCCOC(=O)c1cn(-c2ccccn2)nn1	inhibition	6.25 µg/mL	-	-	-	H37Rv	99%
O=c1[nH]c2ccc(Cl)cc2c(O)c1N=Nc1cccc([N+](=O)[O-])c1	MIC	-	-	-	resazurin	H37Rv	<6.25 µg/mL
Fc1cccc(C2SCc3nc4ccccc4n32)c1	inhibition	6.25 µg/mL	-	-	resazurin	H37Rv	18%
Cc1cc(NC(=O)c2cc(I)ccc2O)no1	MIC	-	-	-	-	My 331/88	125 µM
Cc1ccc(SCC(=O)NCc2cccs2)cc1	MIC bound	-	-	-	BACTEC	H37Rv	≤12.5 µg/mL
O=[N+]([O-])c1ccc(-c2cn3ccsc3n2)cc1	inhibition	6.25 µg/mL	-	-	-	H37Rv	0%
O=C(Nn1cncn1)c1ccccc1O	MIC	-	-	-	-	My 331/88	1000 µM
CO[C@H]1/C=C/O[C@@]2(C)Oc3c(C)c(O)c4c(O)c(c(/C=N/N5CCCC(O)C5)c(O)c4c3C2=O)NC(=O)/C(C)=C\C=C\[C@H](C)[C@H](O)[C@@H](C)[C@@H](O)[C@@H](C)[C@H](OC(C)=O)[C@@H]1C	MIC	-	-	-	-	H37Rv	0.5 µg/mL
CCCCCCCCN1C(=O)CC(C)(SCC(N)C(=O)O)C1=O	MIC	-	-	-	-	H37Ra	≤20 µg/mL
O=C(O)c1ccccn1	MIC90	-	-	-	resazurin / absorbance	H37Rv	>406 µM
CO[C@H]1/C=C/O[C@@]2(C)Oc3c(C)c(O)c4c(O)c(c(/C=N/N5CCCC5)c(O)c4c3C2=O)NC(=O)/C(C)=C\C=C\[C@H](C)[C@H](O)[C@@H](C)[C@@H](O)[C@@H](C)[C@H](OC(C)=O)[C@@H]1C	MIC	-	-	-	-	H37Rv	0.2 µg/mL
C=C[C@]1(C)C=C2CC[C@@H]3[C@](C)(CCC[C@@]3(C)C(=O)O)[C@H]2CC1	inhibition	128 µg/mL	-	-	BACTEC	H37Rv	100%
O=Nc1c(-c2ccc(Cl)cc2)nc2sc(Cl)cn12	MIC	-	-	-	-	H37Rv	>6.25 µg/mL
COC(=O)c1nc(N)[nH]c(=O)c1-c1ccc(Cl)cc1	inhibition	12.5 µg/mL	-	-	BACTEC	H37Rv	0%
O=[N+]([O-])c1ccc(-c2cn3cc(Cl)sc3n2)cc1	MIC	-	-	-	-	H37Rv	>6.25 µg/mL
COC(=O)c1cn(-c2ccc(-c3ccccc3)nn2)nn1	MIC	-	-	-	-	H37Rv	>6.25 µg/mL
CCCCCCCCCN1C(=O)CC(NC(C)CCN(CC)CC)C1=O	MIC	-	-	-	-	H37Rv	≤20 µg/mL
COc1cc(/C=N/NC(=O)C(C)SC(C)C(=O)N/N=C/c2cc(OC)c(OC)c(OC)c2)cc(OC)c1OC	MIC bound	-	-	-	BACTEC	H37Rv	>12.5 µg/mL
C/C=C/C1=CC=C/C(=C2\C(=O)CNC2=O)O1	MIC	-	-	-	resazurin / visual reading	H37Ra	3.1 µg/mL
Cc1ccc2c(O)c(N=Nc3ccccc3Cl)c(=O)[nH]c2c1	inhibition	6.25 µg/mL	-	-	resazurin	H37Rv	31%
Clc1cn2cc(-c3ccccc3)nc2s1	MIC	-	-	-	-	H37Rv	>6.25 µg/mL
CCCOC(=O)c1cn(-c2cccnn2)nn1	inhibition	6.25 µg/mL	-	-	-	H37Rv	13%
Nc1ccc2nc3cc(Nc4ccccc4)c(=Nc4ccccc4)cc-3n(-c3ccccc3)c2c1	MIC	-	-	-	-	INH-r	0.4 µg/mL
Cc1ccn2c(C(=O)OCc3ccccc3)c(C)nc2c1	MIC90	-	Resistant to HREZSKP	-	broth dilution	MDR-TB	<0.01 µg/mL
O=C(CSc1nnc(-c2ccccn2)s1)N/N=c1/scc(-c2cccc(Cl)c2)n1-c1ccccc1	MIC	-	-	-	-	Clinical isolate 190	>80 µg/mL
Cc1ccc(-c2cnnc(N3CCC(c4ccccc4)C3)n2)o1	MIC	-	-	-	low oxygen	H37Rv-CV-lux-AB	54.7 µM
Clc1cn2cc(-c3ccncc3)nc2s1	inhibition	6.25 µg/mL	-	-	-	H37Rv	0%
Cc1cc(=O)c2ccc3c(ccc4c(=O)cc(C)[nH]c43)c2[nH]1	inhibition	6.25 µg/mL	-	-	-	H37Rv	98%
COC(=O)c1cn(-c2ccccn2)nn1	inhibition	6.25 µg/mL	-	-	-	H37Rv	25%
CC1(C)OC(=O)C(=Cc2ccc([N+](=O)[O-])s2)C(=O)O1	MIC bound	-	-	-	resazurin	H37Rv	>6.25 µg/mL
Cc1c(CN2CCSCC2)cc(-c2ccccc2Cl)n1-c1ccccc1F	MIC	-	-	-	-	-	4 µg/mL
CCCCN1C(=O)C=CC1=O	MIC	-	-	-	-	H37Ra	≤20 µg/mL
NNC(=O)CNc1cccc(I)c1	MIC	-	-	-	BACTEC	H37Rv	≥12.5 µg/mL
CCCCCCN1C(=O)C=CC1=O	MIC	-	-	-	-	H37Ra	≤20 µg/mL
O=C1CCCC(=O)NNC(=O)NCCCCCCNC(=O)NN1	inhibition	12.5 µg/mL	-	-	BACTEC	H37Rv	-31%
O=Nc1c(-c2ccc(Cl)cc2)nc2sccn12	inhibition	6.25 µg/mL	-	-	-	H37Rv	100%
NNC(=O)c1ccc(Cl)cc1	EC50	-	-	-	-	-	<0.125 µg/mL
Cc1ccccc1-n1c(-c2ccccc2)cs/c1=N/NC(=O)CSc1nnc(-c2ccccn2)s1	MIC	-	-	-	-	Clinical isolate 331	40 µg/mL
Cn1c(=O)c(N=Nc2ccc(Cl)c(Cl)c2)c(O)c2ccccc21	MIC	-	-	-	resazurin	H37Rv	>6.25 µg/mL
CC(=O)N1N=C(C2=C(C)NC(=O)NC2c2ccccc2F)OC1c1ccc(O)cc1	inhibition	250 µg/mL	-	-	agar / visual reading	H37Rv	71%
CC1(C)OC2OC(CO)C(N3C(=O)c4ccccc4C3=O)C2O1	MIC bound	-	-	-	BACTEC	H37Rv	>12.5 µg/mL
CCCCOC(=O)c1cn(-c2cc(C)ccn2)nn1	inhibition	6.25 µg/mL	-	-	-	H37Rv	89%
NNC(=O)C(=O)NN	inhibition	0.25 µg/mL	-	-	-	-	60%
CC(CN(C)C)CN1c2ccccc2Sc2ccccc21	MIC	-	-	-	-	H37Rv	32 µg/mL
Cc1cccc(C)c1N=Nc1c(O)c2cccc([N+](=O)[O-])c2[nH]c1=O	inhibition	6.25 µg/mL	-	-	resazurin	H37Rv	22%
C[n+]1cc2c(cn3c4ccccc4ccc23)c2ccccc21	MIC	-	p-aminosalicylic acid-resistant	-	resazurin / visual reading	H37Rv	1.5 µg/mL
Nc1ccc2nc3c4ccccc4c(O)n3nc2c1	inhibition	6.25 µg/mL	-	-	-	H37Rv	5%
CCOC(=O)c1cn(-c2ccc(-c3ccccc3)nn2)nn1	inhibition	6.25 µg/mL	-	-	-	H37Rv	4%
CC(=O)Nc1ccc(/C=N/NC(N)=S)cc1	EC50	-	-	-	BACTEC	9 strains	≤0.5 µg/mL
N/C(C/C(=N/OC(=O)c1ccccc1)OC(=O)c1ccccc1)=N/O	MIC bound	-	-	-	resazurin	H37Rv	>6.25 µg/mL
Cc1c(CN2CCN(C)CC2)cc(-c2ccccc2Cl)n1-c1ccccc1	MIC	-	-	-	-	-	>16 µg/mL
Cc1ccc(NC(=O)c2cc([N+](=O)[O-])cc([N+](=O)[O-])c2)cc1Cl	inhibition	12.5 µg/mL	-	-	BACTEC	H37Rv	98%
COc1ccc(C2OC(C3=C(C)NC(=O)NC3c3ccccc3F)=NN2C(C)=O)cc1	inhibition	250 µg/mL	-	-	agar / visual reading	H37Rv	48%
Cc1c(CN2CCN(C)CC2)cc(-c2cccc3ccccc23)n1-c1ccccc1	MIC	-	-	-	-	-	>16 µg/mL
CCCCCCCCCN1C(=O)CC(SCCNC(=O)C2CCCC2)C1=O	MIC	-	-	-	-	H37Ra	≤20 µg/mL
c1ccc(C(CCNCCNCC23CC4CC(CC(C4)C2)C3)c2ccccc2)cc1	MIC	-	-	-	-	H37Rv	7.8 µM
Cc1c(CN2CCSCC2)cc(-c2cccc3ccccc23)n1-c1ccccc1	MIC	-	-	-	-	-	>16 µg/mL
COC12CC3(C)C(C4=CC(=O)OC4)CCC3(O)C3CCC4=CC(=O)CCC4(CO1)C32	MIC bound	-	-	-	BACTEC	H37Rv	>12.5 µg/mL
Cc1cc(NC(=O)c2ccc(Cl)cc2O)no1	MIC	-	-	-	-	My 331/88	8 µM
COc1ccc(-c2cn3cc(Cl)sc3n2)cc1	inhibition	6.25 µg/mL	-	-	-	H37Rv	78%
C[C@@H]1Cn2cc(C(=O)O)c(=O)c3cc(F)c(N4CCN(/C(N)=N/C(N)=NCCCCCCN=C(N)/N=C(\N)N5CCN(c6c(F)cc7c(=O)c(C(=O)O)cn8c7c6O[C@@H](C)C8)CC5)CC4)c(c32)O1	MIC	-	-	-	broth dilution	ATCC 35820	0.625 µg/mL

The first 6 rows once more:

SMILES | read-out | dose | changes | conditions | read by | strain | result
CCOc1c(N=Nc2ccc([N+](=O)[O-])cc2)c(C)nn1C(=S)S | MIC | - | - | - | BACTEC | H37Rv | ≥12.5 µg/mL
O=C(Nc1cncs1)c1cc(Br)ccc1O | MIC | - | - | - | - | My 331/88 | 62.5 µM
CNc1ccccc1C(=O)O[C@@H]1[C@@H](C)[C@]2(O)[C@@H]3C=C(C)C(=O)[C@H]3CC(C)=C[C@H]2[C@@H]2C(C)(C)[C@]12OC(=O)O | MIC | - | - | - | - | H37Ra | 50 µg/mL
C[n+]1cn(-c2ccc([N+](=O)[O-])cn2)c2ccccc21 | MIC bound | - | - | - | resazurin | H37Rv | >6.25 µg/mL
Cc1c(Cl)cccc1N=Nc1c(O)c2ccc([N+](=O)[O-])cc2[nH]c1=O | MIC | - | - | - | resazurin | H37Rv | <6.25 µg/mL
Cc1cc[n+](CC(=O)c2ccc(F)cc2)cc1.[Br-] | EC50 | - | - | multidrug-resistant | resazurin | Clinical isolate | 8 µg/mL